The subject of test [1] is HIV. Briefly: HIV infection in cell culture, syncytia formation in PBLs. Format: cell-based. The conditions noted are these: read-out: IC50 [PBL]; HIV-infected normal human blood lymphocytes (PBLs); 50% suppression of virus-induced syncytia. The protocol:
(§1) The HIV test was carried out with slight modifications by the method of Pauwels et al. [cf. Journal of Virological Methods 20, (1988), 309-321].
Normal human blood lymphocytes (PBLs) were enriched on Ficoll-Hypaque and stimulated in RPMI 1640, 20% foetal calf serum containing phytohaemagglutinin (90 μg/ml) and interleukin-2 (40 U/ml). For infection with the infectious HIV, PBLs were pelleted and the cell pellet was then suspended in 1 ml of HIV virus adsorption solution and incubated for 1 hour at 37° C.
The virus adsorption solution was centrifuged and the infected cell pellet taken up in growth medium so that a concentration of 1×10^5 cells per ml was established. The cells infected in such a way were pipetted at 1×10^4 cells/well into the wells of 96-well microtitre plates.
The first vertical row of the microtitre plate contained only growth medium and cells which had not been infected, but otherwise had been treated exactly as described above (cell control). The second vertical row of the microtitre plate contained only HIV-infected cells (virus control) in growth medium. The other wells contained the compounds according to the invention in different concentrations, starting from the wells of the 3rd vertical row of the microtitre plate, from which the test substances were diluted 2^10 times in steps of two.
The test batches were incubated at 37° C. until in the untreated virus control the syncytia formation typical of HIV occurred (between day 3 and 6 after infection), which was then assessed by microscopy.
(§2) The IC50 values were determined as the concentrations of the […] at which 50% (about 10 syncytia) of the virus-induced syncytia were suppressed by the treatment with the compound according to the invention.

The target of a further test is HIV protease (HIV-1) (Human immunodeficiency virus type 1 group M subtype B, UniProt P04585). Briefly: HIV-specific protease enzyme test (RP-HPLC analysis of synthetic peptide cleavage). The conditions noted are these: read-out: IC50 (RP-HPLC) HIV-1, purified HIV protease, synthetic Gag cleavage-site peptide. The protocol:
The results of the examples listed below were determined by the HIV test system described in the following references [cf. Hansen, J., Billich, S., Schulze, T., Sukrow, S. and Molling, K. (1988), EMBO Journal, Vol. 7, No. 6, pp. 1785-1791]: purified HIV protease was incubated with synthetic peptide which imitates a cleavage site in the Gag precursor protein and represents an in vivo cleavage site of the HIV protease. The resulting cleavage products of the synthetic peptide were analysed by means of reverse phase high performance liquid chromatography (RP-HPLC). The IC50 values given relate to the substance concentration which causes a 50% strength inhibition of the protease activity under the above-mentioned test conditions.

In test [2] the test system is HIV. In words: HIV infection in cell culture, H-9 cells. The class given is cell-based. Conditions: read-out: IC50 [H-9]; HIV-infected H-9 cells. The protocol:
as §1, §2

As to `CC[C@H](C)[C@H](NC(=O)[C@H](C[C@H](O)[C@H](CC1CCCCC1)NC(=O)[C@@H](NC(=O)c1ccc2ccccc2n1)C1SCCS1)C(C)C)C(=O)NCc1ccccn1`, in the test on HIV [1], the half-maximal inhibitory concentration (IC50) is 5000 nM.

Regarding `CC[C@H](C)[C@H](NC(=O)[C@@H](C[C@H](O)[C@H](CC1CCCCC1)NC(=O)[C@@H](NC(=O)[C@H](Cc1ccccc1)CS(=O)(=O)C(C)(C)C)C1SCCS1)C(C)C)C(=O)NCc1ccccn1`, the 50% inhibitory concentration (IC50) with HIV [1] is 1000 nM; at HIV protease (HIV-1), 0.14 to 1 nM.

As for `CC[C@H](C)[C@H](NC(=O)[C@@H](C[C@H](O)[C@H](CC1CCCCC1)NC(=O)[C@@H](NC(=O)c1ccc2ccccc2n1)C1SCCS1)C(C)C)C(=O)NCc1ccccn1`, the values for the IC50 in the test with HIV [1], on HIV protease (HIV-1) and in the test on HIV [2] were 50 nM, 0.064 to 0.11 nM and 38 nM, respectively.

As to `C=CCC(C[C@H](O)[C@H](CC1CCCCC1)NC(=O)[C@@H](NC(=O)c1ccc2ccccc2n1)C1SCCS1)C(=O)N[C@H](C(=O)NCc1ccccn1)[C@@H](C)CC` (stereo partly shown), the concentration for half-maximal inhibition (IC50) was less than 80 nM with HIV [1] and 23 to 80 nM on HIV protease (HIV-1).

Consider `CC[C@H](C)[C@H](NC(=O)[C@@H](Cc1ccccc1)C[C@H](O)[C@H](CC1CCCCC1)NC(=O)[C@@H](NC(=O)c1ccc2ccccc2n1)C1SCCS1)C(=O)NCc1ccccn1`, for which the half-maximal inhibitory concentration (IC50) in the test on HIV [1] was less than 400 nM; on HIV protease (HIV-1) it was 8.7 to 9 nM.

Regarding `CC[C@H](C)[C@H](NC(=O)[C@H](C[C@H](O)[C@H](CC1CCCCC1)NC(=O)[C@@H](NC(=O)C1CCN(C(=O)c2ccccn2)CC1)C1SCCS1)C(C)C)C(=O)NCc1ccccn1`, the values for the 50% inhibitory concentration (IC50) in the test on HIV [1] and on HIV protease (HIV-1) were 10000 nM and 6.8 to 9 nM, respectively.

In the case of `CC[C@H](C)[C@H](NC(=O)[C@H](C[C@H](O)[C@H](CC1CCCCC1)NC(=O)[C@@H](NC(=O)[C@H](Cc1ccccc1)CS(=O)(=O)C(C)(C)C)C1SCCS1)C(C)C)C(=O)NCc1ccccn1`, the concentration for half-maximal inhibition (IC50) in the test with HIV [1] was 5000 nM; at HIV protease (HIV-1), 68 to 80 nM.

With `CC[C@H](C)[C@H](NC(=O)[C@@H](C[C@H](O)[C@H](CC1CCCCC1)NC(=O)[C@@H](NC(=O)C1CCN(C(=O)c2ccccn2)CC1)C1SCCS1)C(C)C)C(=O)NCc1ccccn1`, the IC50 in the test with HIV [1] was 10000 nM; on HIV protease (HIV-1), 21 to 80 nM.

`CC[C@H](C)[C@H](NC(=O)[C@H](Cc1ccccc1)C[C@H](O)[C@H](CC1CCCCC1)NC(=O)[C@@H](NC(=O)c1ccc2ccccc2n1)C1SCCS1)C(=O)NCc1ccccn1`: the IC50 is less than 400 nM in the test on HIV [1] and 16 to 80 nM on HIV protease (HIV-1).

Turning to `CC[C@H](C)[C@H](NC(=O)[C@@H](C[C@H](O)[C@H](CC1CCCCC1)NC(=O)[C@@H](NC(=O)[C@H](Cc1ccccc1)OC(=O)N(C)CCC(=O)N1CCOCC1)C1SCCS1)C(C)C)C(=O)NCc1ccccn1`, the results for the IC50 in the test on HIV [1] and on HIV protease (HIV-1) were 400 nM and 1.9 to 9 nM, respectively.

For `CC[C@H](C)[C@H](NC(=O)C(C[C@H](O)[C@H](CC1CCCCC1)NC(=O)[C@@H](NC(=O)c1cc2ccccc2[nH]1)C1SCCS1)C(C)C)C(=O)NCc1ccccn1` (stereo partly shown), the IC50 in the test with HIV [1] is more than 1000 nM; at HIV protease (HIV-1), 0.13 to 1 nM.

The values above are taken from US5424426A, “Dithiolanylglycine-containing HIV protease inhibitors of the hydroxyethylene isostere type” (Bayer Aktiengesellschaft, priority 1992, dated 1995).
